Construct, isoform or probe ends are uncertain for at least one entry. At least one verdict was read from the data and is not stated in words by the source. Where a protein sequence is shown, tags need not be part of it.

This data set addresses T1, TcSgn1 (UniProt Q4DMU4).
T1 sequence (looked up, limits assumed): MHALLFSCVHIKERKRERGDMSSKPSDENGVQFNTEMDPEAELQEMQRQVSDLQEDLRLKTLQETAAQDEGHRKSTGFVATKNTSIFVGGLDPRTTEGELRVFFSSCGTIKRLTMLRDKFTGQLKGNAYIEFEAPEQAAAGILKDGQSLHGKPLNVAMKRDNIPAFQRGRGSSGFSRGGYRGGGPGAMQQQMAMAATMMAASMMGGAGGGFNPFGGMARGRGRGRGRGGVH
Put plainly: EMSA. The note with it: 1 mM Mg2+, 500 ng to 3 ug protein, 10 ng probe, unlabeled poly(A) as competitor; 10 mM Tris-HCl pH 7.4, 10 mM KCl, 1 mM MgCl2, 1 mM DTT, 200 ng/mL heparin, 100 mM spermidine, 50% glycerol; room temperature, 30 min; 5% native PAGE; recombinant protein. (In general: A gel shift assay detects complexes by their altered migration in electrophoresis.)

Take “AAAAAAAAAAAAAAAAAAAA [poly(A) 20-mer RNA probe]”: the binding result is “binds”.

The record behind these values is publication PMC8147501.
